Measured values from several laboratories, pooled; numbers as filed in NIAID ChemDB.

Shared fields: cytotoxicity tests; cells: PBMC; endpoint: CC50

CCn: concentration that lowers growth or viability of the cells by n%. Two numbers with a dash give a range or band. An empty or dashed field is not shown. Conditions beyond the fields shown may differ between rows.

structure | method | result
Oc1ccc(/C=C/c2cc(O)cc(O)c2)cc1 |  | >10 µM
Nc1c(S(=O)(=O)O)cc2c3c(cc(S(=O)(=O)O)cc13)C(=O)N(NC(=O)N/N=C\c1ccc(-c3ccc(C=O)cc3)cc1)C2=O |  | >100 µM
Cc1cc2c(C(C)C)c(O)c(O)c(C=O)c2c(O)c1-c1c(C)cc2c(C(C)C)c(O)c(O)c(C=O)c2c1O | MTT | 12.86 µM
CCCCN1C(=O)C(CC2CCCCC2)NC(=O)C12CCN(Cc1cnc(-c3ccccc3)[nH]1)CC2 |  | 12 µM
Cc1cn([C@H]2C=C[C@@H](COC(=O)CNC(=O)C(=O)/C=C(\O)c3cc(OCc4ccccc4)cc(OCc4ccccc4)c3)O2)c(=O)[nH]c1=O | MTT | >10 µM
Nc1nc(N)c2ncn([C@H]3CC[C@](OCP(=O)(O)O)(C(F)(F)F)C3)c2n1 | MTT | 98 µM
Cc1cn([C@H]2C[C@H](N=[N+]=[N-])[C@@H](COC(=O)c3ccncc3)O2)c(=O)[nH]c1=O | trypan blue | 10 µM
Cc1ccc(CCNC(=S)Nc2ccc(Br)cn2)cc1 |  | >100 µM
COC(=O)C(CO)N=Cc1c(O)c(O)c(C(C)C)c2cc(C)c(-c3c(C)cc4c(C(C)C)c(O)c(O)c(C=NC(CO)C(=O)OC)c4c3O)c(O)c12 |  | 35 µM
Cc1cn([C@H]2C[C@H](N=[N+]=[N-])[C@@H](COC(=O)C(=O)NC(Cc3ccccc3)C(=O)O)O2)c(=O)[nH]c1=O | sulforhodamine | 300 µM
Nc1ccn([C@H]2C=C[C@@H](CO)C2)c(=O)n1 |  | >100 µM
Cn1c(O)c(C2=c3ccccc3=NC2=O)c2ccccc21 |  | >100 µM
CCc1nc2sccn2c1C(=O)c1ccco1 |  | 110 µM
CC(=O)Oc1c(OC(C)=O)c2c3c(c(-c4c(C)cc5c(C(C)C)c(OC(C)=O)c(OC(C)=O)c6c5c4OC6OC(C)=O)c(C)cc3c1C(C)C)OC2OC(C)=O |  | >100 µM
COC(=O)[C@H](C)NP(=O)(OC[C@H]1O[C@@H](n2cc(C)c(=O)[nH]c2=O)C[C@@H]1N=[N+]=[N-])Oc1ccc(Br)cc1 |  | >100 µM
c1cc(CN2CCCNCCNCCCNCC2)ccc1CN1CCCNCCNCCCNCC1 |  | >10 µM
Cc1cc(Cl)nc(C)c1C(=O)NCC[C@@H](C)N1CCC(N(C(=O)Nc2cccnc2)c2ccsc2)CC1 |  | >32.4 µM
Cc1cn([C@H]2C[C@H](N=[N+]=[N-])[C@@H](COC(=O)C(=O)N[C@@H](CC(C)C)C(=O)O)O2)c(=O)[nH]c1=O | sulforhodamine | 300 µM
CO[C@H]1CCCC[C@@H](c2ccccc2)OC(=O)C(C)[C@@]2(O)OC([C@@H](C)[C@H](O)[C@H]2OC)[C@@H](C)/C=C/[C@H]1OC | ATP | >50 µM
O=c1[nH]c(=O)n([C@H]2C=C[C@@H](CO)O2)cc1F |  | 32.2 µM
Cc1cn([C@H]2C=C[C@@H](CO)O2)c(=O)[nH]c1=O | tetrazolium | 4.5 µM
CC(=O)c1ccc(C)cc1NC(C(N)=O)c1c(Cl)cccc1Cl |  | 65 µM
CC1(C)CC[C@]2(C(=O)O)CC[C@]3(C)C(=CC[C@@H]4[C@@]5(C)CC[C@H](O[C@@H]6OC[C@@H](O)[C@H](OC7O[C@H](CO)[C@H](O)[C@H](O)[C@H]7O)[C@H]6O)C(C)(C)[C@@H]5CC[C@]43C)[C@@H]2C1 | MTT | 10.11 µg/mL
COc1c(OC)c2c3c(c(-c4c(C)cc5c(C(C)C)c(OC)c(OC)c6c5c4OC6=O)c(C)cc3c1C(C)C)OC2=O |  | >100 µM
Cc1cn([C@H]2C[C@H](N=[N+]=[N-])[C@@H](CO)O2)c(=O)[nH]c1=O |  | >100 µM
Oc1ccc(CCl)c2cccnc12 |  | >10 µM
Cc1cn([C@H]2C=C[C@@H](COC(=O)CCNC(=O)C(=O)/C=C(\O)c3cccn3Cc3ccc(F)cc3)O2)c(=O)[nH]c1=O | MTT | >10 µM
C[C@H](Cn1cnc2c(N)ncnc21)OCP(=O)(O)O |  | 1200 µM
CCCCC1(CCCC)OCC(C)(CSc2ccc(Cl)cc2)OO1 | MTT | >100 µM
Nc1ncnc2c1ncn2CCOCP(=O)(O)O | MTT | >100 µM
Cc1ccc2c(c1)nc(-c1ccc(N(C)C)cc1)n2CCc1ccccc1 | MTT | >100 µM
Cc1cn([C@H]2C=C[C@@H](COC(=O)CCNC(=O)C(=O)/C=C(\O)c3cc(OCc4ccccc4)cc(OCc4ccccc4)c3)O2)c(=O)[nH]c1=O | MTT | >10 µM
Nc1ncnc2c1ncn2[C@@H]1C=C[C@H](CO)O1 |  | 59 µM
CC1=CC2=C(C(C)C)C(O)C(=O)/C(=C\N[C@H](CC(C)C)C(=O)O)C2C(O)=C1c1c(C)cc2c(C(C)C)c(O)c(O)c(C=N[C@@H](CC(C)C)C(=O)O)c2c1O.[Na+].[Na+] | MTT | 68.12 µM
Cc1cc2c(C(C)C)c(O)c(O)c(C=Nc3ccccc3)c2c(O)c1-c1c(C)cc2c(C(C)C)c(O)c(O)c(C=Nc3ccccc3)c2c1O |  | >100 µM
COC(=O)[C@H](C)NP(=O)(OC[C@@H]1C=C[C@H](n2cc(C)c(=O)[nH]c2=O)O1)Oc1ccc(OC)cc1 |  | >10 µM
Nc1nc2c(ncn2[C@@H]2OC[C@@](/C=C/P(=O)(O)O)(CO)[C@@H]2F)c(=O)[nH]1 | MTT | >100 µM
CCCN(C)C(=O)Oc1nsnc1-c1c(Cl)cccc1Cl |  | 148 µM
c1cc(CN2CCCNCCNCCCNCC2)cc(CN2CCCNCCNCCCNCC2)c1 |  | >10 µM
O=C(/C=C(\O)c1ncn[nH]1)c1ccc(Cc2ccc(F)cc2)o1 |  | 110 µM
Oc1c(I)cc(Cl)c2cccnc12 |  | 2 µM
CC[C@H](C)[C@H](N)C(=O)O.[Na+] | MTT | 73.36 µM
O=C(O)[C@H]1O[C@@H](Oc2cc3oc(-c4ccccc4)cc(=O)c3c(O)c2O)[C@H](O)[C@@H](O)[C@@H]1O |  | 250 µM
CC[C@@H](C)[C@@H](N/C=C1\C(=O)C(O)C(C(C)C)=C2C=C(C)C(c3c(C)cc4c(C(C)C)c(O)c(O)c(C=N[C@H](C(=O)O)[C@@H](C)CC)c4c3O)=C(O)C21)C(=O)O.[Na+].[Na+] | MTT | 73.36 µM
COc1cccc2c1N(C(=O)OC(C)C)C(CSC)C(=S)N2 |  | 59 µM
c1cc(CN2CCCNCCNCCCNCC2)ccc1CN1CCCNCCNCCCNCC1 |  | >1.68 µg/mL
Nc1ncnc2c1ncn2CCOCP(=O)(O)O | MTT / absorbance | >100 µM
CCc1nc2ccccn2c1C(=O)c1ccco1 | MTT | >100 µM
CC1(/C=C/C(=O)NCCNCCCC=O)COC2(OO1)C1CC3CC(C1)CC2C3 | MTT | >100 µM
CC[C@@]1(O)C(=O)OCc2c1cc1n(c2=O)Cc2cc3cc(O)ccc3nc2-1 | MTT | 0.0363 µg/mL
CC(C)Nc1cccnc1N1CCN(C(=O)c2cc3cc(NS(C)(=O)=O)ccc3[nH]2)CC1 |  | 90 µM
Nc1nncc2c([C@H]3CC[C@@H](CCP(=O)(O)O)C3(F)F)c[nH]c12 | MTT / absorbance | 35 µM
CCCCN1C(=O)C(CC(C)C)NC(=O)C12CCN(CCCCCCc1ccccc1)CC2 |  | 11.7 µM
Nc1nc(=O)n([C@H]2C=C[C@@H](CO)O2)cc1F |  | >100 µM
Nc1c(S(=O)(=O)O)cc2c3c(cc(S(=O)(=O)O)cc13)C(=O)N(NC(=O)N/N=C/c1ccc(-c3ccc(/C=N/NC(=O)NN4C(=O)c5cc(S(=O)(=O)O)cc6c(N)c(S(=O)(=O)O)cc(c56)C4=O)cc3)cc1)C2=O |  | >100 µM
CC(C)C[C@H](N)C(=O)O.[Na+] | MTT | 68.12 µM
Cc1cn([C@H]2C[C@H](N=[N+]=[N-])[C@@H](COC(=O)C(=O)N[C@H](C(=O)O)C(C)C)O2)c(=O)[nH]c1=O | sulforhodamine | 250 µM
CCc1nc2ccccn2c1C(=O)c1cccs1 | MTT | 120 µM
C[C@H](Cn1cnc2c(N)ncnc21)OCP(=O)(O)O |  | 1200 µM
NC(=O)NO |  | ~500 µM
CC(=O)O[C@@H]1[C@H](OC(=O)CC(C)C)c2c(ccc3ccc(=O)oc23)OC1(C)C |  | 4–20 µg/mL
CC(C)[C@H](N)C(=O)O.[Na+] | MTT | 70.67 µM

Repeating the final 8 entries:

structure | method | result
Nc1c(S(=O)(=O)O)cc2c3c(cc(S(=O)(=O)O)cc13)C(=O)N(NC(=O)N/N=C/c1ccc(-c3ccc(/C=N/NC(=O)NN4C(=O)c5cc(S(=O)(=O)O)cc6c(N)c(S(=O)(=O)O)cc(c56)C4=O)cc3)cc1)C2=O |  | >100 µM
CC(C)C[C@H](N)C(=O)O.[Na+] | MTT | 68.12 µM
Cc1cn([C@H]2C[C@H](N=[N+]=[N-])[C@@H](COC(=O)C(=O)N[C@H](C(=O)O)C(C)C)O2)c(=O)[nH]c1=O | sulforhodamine | 250 µM
CCc1nc2ccccn2c1C(=O)c1cccs1 | MTT | 120 µM
C[C@H](Cn1cnc2c(N)ncnc21)OCP(=O)(O)O |  | 1200 µM
NC(=O)NO |  | ~500 µM
CC(=O)O[C@@H]1[C@H](OC(=O)CC(C)C)c2c(ccc3ccc(=O)oc23)OC1(C)C |  | 4–20 µg/mL
CC(C)[C@H](N)C(=O)O.[Na+] | MTT | 70.67 µM